How the values were obtained:
SARS-CoV-2 3CL-protease = SARS-CoV-2 3CL-protease (Severe acute respiratory syndrome coronavirus 2 (2019-nCoV) (SARS-CoV-2), UniProt P0DTD1); test: SARS-CoV-2 3C-Like (3CL) Protease Fluorescence Assay (FRET); details: recombinant SARS-CoV-2 3CL-protease 10 nM, FRET peptide substrate, 30 min preincubation at RT, duplicate; ranges defined in μM
Experimental: Biological Activity SARS-CoV-2 3C-Like (3CL) Protease Fluorescence Assay (FRET):
Recombinant SARS-CoV-2 3CL-protease was expressed and purified. TAMIRA-SITSAVLQSGFRKMK-Dabcyl-OH peptide 3CLpro substrate was synthesized. Black, low volume, round-bottom, 384 well microplates were used. In a typical assay, 0.85 μL of test compound was dissolved in DMSO then incubated with SARS-CoV-2 3CL-protease (10 nM) in 10 μL assay buffer (50 mM HEPES [pH 7.5], 1 mM DTT, 0.0100 BSA, 0.01% Triton-X 100) for 30 min at RT. Next, 10 μL of 3CL-protease substrate (40 μM) in assay buffer was added and the assays were monitored continuously for 1 h in an Envision multimode plate reader operating in fluorescence kinetics mode with excitation at 540 nm and emission at 580 nm at RT. No compound (DMSO only) and no enzyme controls were routinely included in each plate. All experiments were run in duplicate. Data Analysis: SARS-CoV-2 3CL-protease enzyme activity was measured as initial velocity of the linear phase (RFU/s) and normalized to controlled samples DMSO (10000 activity) and no enzyme (000 activity) to determine percent residual activity at various concentrations of test compounds (0-10 μM). Data were fitted to normalized activity (variable slope) versus concentration fit in GraphPad Prism 7 to determine IC50. […]

[1] = test system: 229E human corona virus (hCoV); test: 229E Live Virus Assay (MRC-5 cells, CPE, ATPlite readout); details: read-out: 229E EC50, hCoV-229E MOI 0.05, 6 days at 34° C., duplicate, ranges defined in μM
Experimental: MRC-5 cells, (a diploid cell culture line composed of fibroblasts, originally developed from the lung tissue of a aborted fetus), were used for the culturing of 229E human corona virus (hCoV). Flasks were inoculated with hCoV-229E and viral stocks were collected once cytopathic effect (CPE) was greater than 70%. Viral stocks in Growth Media (EMEM, 1% Penn/Strep, 1% nonessential amino acids, 10% heat-inactivated FBS) plus 5% glycerol were snap frozen using liquid nitrogen and stored at −80° C. Viral stock titers were quantified by a TCID50 (50% median tissue culture infectious dose) assay, as described elsewhere.
384-well black cell-culture-treated plastic clear-bottom plates are used in this assay. Using an ECHO liquid dispenser, 3-fold serial dilutions of control and test compounds suspended in DMSO are added to the plate wells in duplicate in a total volume of 125 nL per well. […] The control wells with cells but no virus are given an additional 12.5 μL of growth media containing an equal quantity of glycerol as those wells receiving the viral stock in order to keep consistent in media and volume conditions. […] Following the 6-day incubation period, the plates are read using ATPlite (12.5 μL added per well), which quantifies the amount of ATP (a measure of cell health) present in each well. Assay plates are read using an Envision luminometer. […]

**Q.** What does the source list for `CC(C)C[C@@H](C(=O)N1C[C@]2(C[C@H]1C#N)C(=O)Nc1ccccc12)N(C)C(=O)[C@H](CC(C)(C)C)N(C)C(=O)c1cc2c(F)cc(F)c(F)c2[nH]1`?
**A.** IC50 (SARS-CoV-2 3CL-protease): < 0.1 µM; EC50 [1]: 0.1 to 1 µM

Reference: US11325916B1, “Spiropyrrolidine derived antiviral agents” (priority 2021, dated 2022)
